The exact form of at least one protein or probe is not confirmed.
Biological target: CpxR (phosphorylated) (UniProt P0AE88)
Test: EMSA
Settings: CpxR phosphorylated with acetyl phosphate, 1-5 ug CpxR (legend prints mg), unlabeled probe control in lane 7; LightShift Chemiluminescent EMSA Kit binding reaction (composition not stated), 40 ng/mL probe (legend: 40 ng/uL), room temperature 30 min, 6% polyacrylamide gel; recombinant protein; protein details: His tag (pET28a NdeI/BamHI, Ni-NTA); label: biotin 3' end; probe letters rebuilt from the primers and the genome

Protein sequences, listed by entry. Tags and fused reporters are not part of them. Lines headed by an entry give the natural chain unless they say otherwise; changes in a name come on top.
UniProt P0AE88: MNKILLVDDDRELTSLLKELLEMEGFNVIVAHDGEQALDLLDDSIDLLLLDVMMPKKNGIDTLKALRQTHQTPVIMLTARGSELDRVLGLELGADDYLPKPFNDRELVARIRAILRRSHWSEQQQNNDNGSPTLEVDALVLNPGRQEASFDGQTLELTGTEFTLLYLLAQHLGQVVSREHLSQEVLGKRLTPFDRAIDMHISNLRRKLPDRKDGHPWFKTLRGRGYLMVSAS

## ACCCATCAGTAAAGGAATTAATTTAAACAACCATCCGATATATATATTCATTTTAAACCCCATATATATTTTCTGCTACACTTCGAAAAACATATGATTCGTCTTTTCAGTTAGTTAAATATGTCTATAAGATGCCATCAATTAAAAAAAGTAACTTCACTATAATCGGATTTAGCGTTATGGGGATCAACTTTTAGCGGTGAGTTAATGCTATTAAATAAATATTTATCCTAAGATAAACTCTGAATTAATATCTTTATCTTATTTTGTTGTTTTAAATGAGTCTTTTAGGAAATATTTTATTAAACCCACGAGCCTTTATCATCTATCATCTTTTCAGAATAAATTATTTTATATTCGGTATTTATTCGCATATCAGGCGATAATAACGCTATGTGATAGTC (double strand) [yhiM promoter region (0 to -400 bp)]
  binding result: binds
